{"source": "patent US20120265121A1", "about": "“PHTHALOCYANINE-BASED ANTIFUNGAL AGENTS” (CASE WESTERN RESERVE UNIVERSITY, priority 2011, published 2012)", "tested_on": "C. albicans (strain SC-5134)", "assay": "Confocal microscopy of Pc 4 uptake and localization", "type": "cell-based, Candida albicans", "settings": "C. albicans loaded with Pc 4, confocal fluorescence", "note": "“Also recorded” adds a separate entry of the source."}
{"smiles": "CN(C)CCC[Si](C)(C)O[Si]1(O)n2c3c4ccccc4c2N=C2N=C(N=c4c5ccccc5c(n41)=NC1=NC(=N3)c3ccccc31)c1ccccc12", "note": "(stereo not shown) [Pc 4, HOSiPcOSi(CH3)2(CH2)3N(CH3)2]", "values": [{"measurement": "uptake and subcellular localization", "value": "able to penetrate the cell membrane of C. albicans and can be seen within the cytosol; also recorded: detected in the cytoplasmic compartment but not in the cell wall, plasma membrane or nucleus"}]}
